Here are results for one substance from US7750123B2.

What is called Kd is the free concentration of one partner at which half of the binding sites on the other are occupied at equilibrium, for simple one-to-one binding. The koff is the rate constant with which the complex falls apart. As usually defined, the kon is the second-order rate constant of association. Low values mean slow association, high ones fast association.

Where only a bound is given, the exact number is not on record here.

For assay [1], the target named is S1-C9 (SARS-CoV (Tor2 isolate)) (UniProt P59594). Description: phage ELISA, S1-C9 coated 0.2 µg per well. (In general: An ELISA detects its analyte on a solid surface through an enzyme-linked reagent.)
Assay [2] addresses S1(327-510)-Ig (SARS-CoV (Tor2 isolate); human) (UniProt P59594). Description: radioimmunoprecipitation with 80R scFv beads, normalized to Protein A.
The target of assay [3] is S1-Ig (SARS-CoV (Tor2 isolate); human) (UniProt P59594). Description: SPR (BIAcore 3000), S1-Ig amine-coupled to CM5 chip. For orientation: In SPR one partner is held on a chip, and binding of the other changes the refractive index at the surface.

80R scFv had an A450 in assay [1] of over 1 A450. The substance further had a percent of the amount that Protein A precipitated in assay [2] of 5%. For the same substance, in assay [3], the Ka came to 3.1e+07 M⁻¹, the Kd amounted to 32.3 nM, the koff is 0.00836 s⁻¹ and the kon was determined as 229000 M⁻¹ s⁻¹.
